1 substance from patent US20220326221A1 can be followed below.

The assay concerns the target mScarlet-SNAP25-GeNluc indicator protein. The experiment in a line: cell-based or functional assay.

“BoNT/A (Metabiologics, Inc.) (from UniProt P0DPI0 2-1296)” yielded a reduction in green-positive cells per HPF, 1 nM BoNT/A for 24 hours, NG108 cells of 25%.
